Protein sequences can lack the tags named with them.
How the values were obtained:
[1] = test system: T1, HipB (Acidovorax citrulli Aac5); assay: EMSA; conditions: HipB 12, 24, 36 uM; 20 uL reaction (buffer composition and pH not stated), HipB 12-36 uM, PhipBA-FAM 60 ng/uL, PhipBA 120 ng/uL, room temperature 30 min, 6% SDS-free protein gel; recombinant protein; residues 1-168; protein details: N-terminal 6xHis (pET-28a); label: 5' FAM; probe letters rebuilt from the primers and the genome
T1 sequence (looked up): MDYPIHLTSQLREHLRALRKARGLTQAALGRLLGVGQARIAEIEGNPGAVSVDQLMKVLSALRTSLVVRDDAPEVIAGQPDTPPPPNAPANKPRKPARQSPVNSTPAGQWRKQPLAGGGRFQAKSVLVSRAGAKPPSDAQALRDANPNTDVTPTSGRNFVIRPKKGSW

[2] = test system: T1, HipB (Acidovorax citrulli Aac5); assay: competition with a labelled probe; conditions: unlabeled PhipBA against PhipBA-FAM, HipB 12 uM, shifted band absent (Table A3 calls it non-specific competitor); 20 uL reaction (buffer composition and pH not stated), HipB 12-36 uM, PhipBA-FAM 60 ng/uL, PhipBA 120 ng/uL, room temperature 30 min, 6% SDS-free protein gel; recombinant protein; residues 1-168; protein details: N-terminal 6xHis (pET-28a); probe letters rebuilt from the primers and the genome

“CATCTATATCGGTTCGTGCCAATATATCTACCAAAGCCAGTTTTTGCAAGATATTGGATTTGGTGTATGAATGGCGGTTATTGGAGATGCCCAGTAATTCATGCCTCGTCTGGCGAGTGACCGATTCATCGGACCACGGCGCACGAGCCTGGGGCTGCAGGAACGCTTCATCGCGGAGCTGGGGACCGAGTGATCGTCCGAGGTGTGCGTCCCCGCGGCTTCAATCCGGCCAGGCGTCCCGGCCGTGTTCCCTCCGCAATTCCTCGGCCCTGCTGCGTATCGCCTCACGCTCCTGCGGCCGCATCGTCTCCAGCCGCGCCAGCTGTGCCGCCATGCGGGGCACGTCTGCCAGCAGTTCCCGGTGCCTGAGCAGGAAGTCCCTGTAGAGCGTGGTGA (double strand) [PhipBA-FAM]”: binds [1].

“CATCTATATCGGTTCGTGCCAATATATCTACCAAAGCCAGTTTTTGCAAGATATTGGATTTGGTGTATGAATGGCGGTTATTGGAGATGCCCAGTAATTCATGCCTCGTCTGGCGAGTGACCGATTCATCGGACCACGGCGCACGAGCCTGGGGCTGCAGGAACGCTTCATCGCGGAGCTGGGGACCGAGTGATCGTCCGAGGTGTGCGTCCCCGCGGCTTCAATCCGGCCAGGCGTCCCGGCCGTGTTCCCTCCGCAATTCCTCGGCCCTGCTGCGTATCGCCTCACGCTCCTGCGGCCGCATCGTCTCCAGCCGCGCCAGCTGTGCCGCCATGCGGGGCACGTCTGCCAGCAGTTCCCGGTGCCTGAGCAGGAAGTCCCTGTAGAGCGTGGTGA (double strand) [PhipBA (unlabeled competitor)]”: binds [2].

From PMC11990009
